Results published in paper PMC4628118 (Frontiers in Microbiology, 2015).

Biological target: drug-resistant HIV-1 PR (PR02-A) harboring L10I/G48S/I54V/V82F/L90M mutations (Human immunodeficiency virus type 1 group M subtype B, UniProt P12497, G536S/I542V/L498I/L578M/V570F)
Assay: biochemical
Description: In vitro transcription and cell-free protein synthesis were performed using WEPRO7240 wheat germ extract (CellFree Sciences, Yokohama, Japan). Transcription was performed using SP6 RNA polymerase, as described previously ([Matsunaga et al., 2014]). The translation reaction was performed in bilayer mode with slight modifications. Briefly, translation mixture (forming the bottom layer) consisted of 10 μl of each mRNA (usually 30–35 μg), 10 μl of WEPRO7240 (CellFree Sciences, Yokohama, Japan), and 0.8 μl of 1 μg/μl creatine kinase (Roche Diagnostics K. K., Tokyo, Japan) in 20.8 μl of SUB-AMIX® (CellFree Sciences, Yokohama, Japan). […] In actual drug susceptibility testing, quantitations of synthesized HIV-1 PR proteins were performed by densitometric scanning of Coomassie Brilliant Blue (CBB)-stained bands as compared with purified HIV-1 PR or bovine serum albumin (BSA) ([Madin et al., 2000]).
CFDSA was performed using cell-free–synthesized PR, substrate peptide, and the AlphaScreen® system (PerkinElmer, Boston, MA, USA). […] Luminescence signals were analyzed with the AlphaScreen detection program using the EnSpire software (PerkinElmer), and light intensities in the presence of the serially diluted inhibitors were used to calculate their IC50 values. PI-resistance levels were determined by comparing the IC50 values of drug-resistant PR with those of NL4-3 PR. […]

For Cc1cccc(C)c1OCC(=O)N[C@@H](Cc1ccccc1)[C@@H](O)C[C@H](Cc1ccccc1)NC(=O)[C@H](C(C)C)N1CCCNC1=O [LPV, lopinavir], the IC50 was 215 nM.
